Each structure is given as a SMILES string. Only a part is listed here, and it is no random draw. Activity calls are given as the source filed them. No rule for the calls is given here.

A short description of the test: anaerobic choline-dependent bacterial growth inhibition – minimal medium, absorbance (AID 1963822). The conditions noted are these: Gram-negative bacterium anaerobic choline minimal medium, stronger effect = lower value.
With `CN(C(=O)Cc1ccccc1)[C@@H]1CC[C@]2(CCCO2)C[C@H]1N1CCCC1`, the z-score was inactive: -0.03.
For `NC(=O)Nc1ccc([As](=O)(O)O)cc1`, the z-score was inactive: 0.43.
Under `CN(C(=O)Cc1ccc(Cl)c(Cl)c1)[C@@H]1CC[C@]2(CCCO2)C[C@H]1N1CCCC1` stands inactive: 0.19; under `CN(C(=O)Cc1ccc(Cl)c(Cl)c1)[C@@H]1CCCC[C@H]1N1CCCC1`, inactive: 0.54.
The same measure for `CN(C)CCS`: inactive: 0.78; for `O=C(O[C@H]1CN2CCC1CC2)C1NCc2ccccc2[C@@H]1c1ccccc1` (stereo not given in full): inactive: 0.68; for `O=P(O)(O)F`: inactive: 0.31.
For the molecule `C/C1=C2N=C(/C=C3N=C(/C(C)=C4\[N-][C@@](C)([C@@H]5N=C1[C@](C)(CCC(=O)NC[C@@H](C)OP(=O)([O-])O[C@H]1[C@@H](O)[C@@H](n6cnc7cc(C)c(C)cc76)O[C@@H]1CO)[C@H]5CC(N)=O)[C@@](C)(CC(N)=O)[C@@H]4CCC(N)=O)[C@@](C)(CC(N)=O)[C@@H]\3CCC(N)=O)C(C)(C)[C@@H]/2CCC(N)=O.[C-]#N.[Co+3]`, the z-score was inactive: 0.57.
Under `CN(C(=O)Cc1ccc(Cl)c(Cl)c1)[C@@H]1CCCC[C@@H]1N1CCCC1` stands inactive: -0.12; under `O=C(OC1CN2CCC1CC2)c1ccccc1` (stereo not given), inactive: 0.59.

The values above are taken from PubChem BioAssay AID1963822 (ICCB-Longwood Screening Facility, Harvard Medical School, 2024).
